Only a part is listed here, and it is no random draw. Some structures show a salt or complex split into parts, the way the source records it. The source made the active and inactive calls. Rule as the data show it: active = inhibition above about 30%; inconclusive = no clear call, values can overlap the other calls; inactive = below that.
system: Botulinum neurotoxin type A light chain protease (Clostridium botulinum A str. ATCC 3502); assay: BoNT/A light chain protease inhibitors, primary screen, biochemical, flow cytometry, MLPCN library (AID 588499); details: multiplex microsphere protease substrate cleavage, at 10 µM, active compounds read high; also: plate controls were buffer without enzyme for full effect and enzyme alone for no effect

Structure (SMILES)	inhibition
CP(=O)(Nc1ccc(SC(F)(F)F)cc1)Oc1ccc(F)cc1 (stereo not drawn)	inactive: 0.3%
CCOP(C)(=S)SCC(=O)NC(C)(CC)C(=O)O (stereo not drawn)	inactive: 0.1%
CP(=O)(Nc1ccc2c(c1)OCCO2)Oc1ccccc1 (stereo not drawn)	inactive: -0.7%
O=[N+]([O-])c1cc([N+](=O)[O-])c(C(F)(F)F)c([N+](=O)[O-])c1O	inactive: -0.7%
Cc1ccccc1NP(C)(=O)Nc1ccccc1C	inactive: 0.8%
COc1ccc(OP(C)(=O)Nc2cccc(Br)c2)cc1 (stereo not drawn)	inactive: -2.2%
COc1ccc(NP(C)(=O)Oc2ccccc2OC)cc1 (stereo not drawn)	inactive: -0.9%
CN(C)CCOC(=O)C(O)(c1ccccc1)C1CCCCC1 (stereo not drawn)	inactive: -0.1%
Cc1cc(-c2cccc3ccccc23)c(C)cn1.O=[N+]([O-])c1cc([N+](=O)[O-])c(O)c([N+](=O)[O-])c1	inactive: -0.7%
O=[N+]([O-])c1cc([N+](=O)[O-])c(NCC2CCS(=O)(=O)C2)c([N+](=O)[O-])c1 (stereo not drawn)	inactive: 1.7%
O=[N+]([O-])c1ccc(OP2(=O)COCCO2)cc1 (stereo not drawn)	inactive: 0.5%
Cc1c(C(c2ccc3c(c2)OCO3)c2c(C)n(C)n(-c3ccccc3)c2=O)c(=O)n(-c2ccccc2)n1C.O=[N+]([O-])c1cc([N+](=O)[O-])c(O)c([N+](=O)[O-])c1	inactive: -1.4%
CCN(CC)CCCNc1ccccc1[N+](=O)[O-].O=[N+]([O-])c1cc([N+](=O)[O-])c(O)c([N+](=O)[O-])c1	inactive: 0.4%
COc1ccc(OP(C)(=O)Nc2ccc(SC(F)(F)F)cc2)cc1 (stereo not drawn)	inactive: -0.6%
CCOC(=O)c1ccc(NP(C)(=O)Oc2ccc(F)cc2)cc1 (stereo not drawn)	inactive: -0.1%
CCN(CC)CCCOC(=O)C(O)(c1ccccc1)C1CCCCC1 (stereo not drawn)	inactive: 0.9%
Cc1c([N+](=O)[O-])cc([N+](=O)[O-])c(Br)c1[N+](=O)[O-]	inactive: 0.1%
O=[N+]([O-])c1cc([N+](=O)[O-])c(OC2CCCCC2O)c([N+](=O)[O-])c1 (stereo not drawn)	inactive: -3.1%
CCCCCOc1ccc(NP(C)(=O)Oc2ccc(Cl)cc2Cl)cc1 (stereo not drawn)	inactive: 0%
CP(=O)(Nc1ccccc1)Oc1ccc(F)cc1 (stereo not drawn)	inactive: -1.2%
O=[N+]([O-])c1cc([N+](=O)[O-])c(Nc2ccc(Cl)cc2)c([N+](=O)[O-])c1	inactive: -0.5%
CC(C)c1ccc(OP(C)(=O)Nc2ccc(SC(F)(F)F)cc2)cc1 (stereo not drawn)	inactive: 0.2%
CP(=O)(Nc1ccccc1F)Oc1ccccc1 (stereo not drawn)	inactive: 0.5%
O=C(OCCN1CCN(CCOCc2ccccc2)CC1)C(O)(c1ccccc1)c1ccccc1	inactive: 0.5%
O=C(OC1CN2CCC1CC2)c1ccc([N+](=O)[O-])cc1 (stereo not drawn)	inactive: -0.5%

Structure (SMILES)	inhibition
COc1ccc2c(c1O)-c1c(O)c(OC)cc3c1[C@H](C2)[N+](C)(C)CC3.O=[N+]([O-])c1cc([N+](=O)[O-])c([O-])c([N+](=O)[O-])c1[O-]	inactive: -0.7%
COc1ccccc1OP(C)(=O)Nc1ccc(Br)cc1 (stereo not drawn)	inactive: -0.1%
CN(C)CCOC(=O)C(O)(c1ccccc1)C1CCCC1 (stereo not drawn)	inactive: -0.2%
COc1ccc(OP(C)(=O)Nc2ccccn2)cc1 (stereo not drawn)	inactive: 0.3%
O=[N+]([O-])c1cc([N+](=O)[O-])c(Nc2ccccn2)c([N+](=O)[O-])c1	inactive: 0.4%
Cc1c(NP(C)(=O)Oc2ccc(C(C)C)cc2)c(=O)n(-c2ccccc2)n1C (stereo not drawn)	inactive: 3.7%
CCc1ccc(OP(C)(=O)O)cc1	inactive: 0.2%
CP(=O)(Nc1ccccn1)Oc1ccccc1 (stereo not drawn)	inactive: 0.5%
COc1ccccc1OP(C)(=O)Nc1ccc(C)cc1C (stereo not drawn)	inactive: -0.5%
O=C1C(O)=C([N+](=O)[O-])C(=O)C(O)=C1[N+](=O)[O-]	inactive: -0.1%
Cc1cc(C)cc(OP(C)(=O)Nc2cccc(C(F)(F)F)c2)c1 (stereo not drawn)	inactive: -0.5%
COc1ccc(OP(C)(=O)Nc2ccccc2Br)cc1 (stereo not drawn)	inactive: 0.6%
COc1ccccc1OP(C)(=O)Nc1ccc(C)c(C)c1 (stereo not drawn)	inactive: -0.5%
CP(=O)(OCCOc1ccccc1)OCCOc1ccccc1	inactive: -0.8%
CP(=O)(Nc1ccc(Cl)cc1Cl)Oc1ccccc1 (stereo not drawn)	inactive: -1.3%
CCCCCCCCCCCCCCCC1C[N+](C)(C)CCOP(C)(=O)O1 (stereo not drawn)	inactive: -0.6%
CP(=O)(OC12CC3CC(CC(C3)C1)C2)OC12CC3CC(CC(C3)C1)C2	inactive: -2.5%
CCOC(=O)c1ccc(NP(C)(=O)Oc2ccc(Cl)cc2)cc1 (stereo not drawn)	inactive: -0.4%
CCN(CC)CC(O)COC(=O)C(O)(c1ccccc1)C1CCCCC1 (stereo not drawn)	inactive: 1%
COc1ccc(OP(C)(=O)Nc2ccc(Br)cc2)cc1 (stereo not drawn)	inactive: 0.5%
CP(=O)(Oc1ccccc1)N1CCOC1=O (stereo not drawn)	inactive: 0.4%
CCc1ccc(OP(C)(=O)Nc2cccnc2)cc1 (stereo not drawn)	inactive: 0.1%
COc1ccccc1OP(C)(=O)Nc1c(C)n(C)n(-c2ccccc2)c1=O (stereo not drawn)	inactive: -0.4%
O=C(OCCCN1CCCC1)C(O)(c1ccccc1)C1CCCCC1 (stereo not drawn)	inactive: 1.9%
CP(=O)(Nc1ccc(Cl)cc1)Oc1ccc(F)cc1 (stereo not drawn)	inactive: -1.8%

Structure (SMILES)	inhibition
CC(C)(C)c1ccc(OP(C)(=O)O)cc1	inactive: -0.2%
COc1ccccc1OP(C)(=O)Nc1ccccc1Br (stereo not drawn)	inactive: 0.9%
CN(C)C(=O)c1c([N+](=O)[O-])cc([N+](=O)[O-])cc1[N+](=O)[O-]	inactive: -1%
Cc1ccc(Nc2c([N+](=O)[O-])cc([N+](=O)[O-])cc2[N+](=O)[O-])cc1	inactive: -0.3%
Cc1cccc(C)c1OP(C)(=O)Nc1ccc(SC(F)(F)F)cc1 (stereo not drawn)	inactive: -0.1%
CP(=O)(Nc1ccc(SC(F)(F)F)cc1)Oc1ccc(Cl)cc1 (stereo not drawn)	inactive: -0.9%
CP(=O)(Oc1ccccc1)OC(c1ccccc1)C(F)(F)F (stereo not drawn)	inactive: -0.3%
CCc1ccc(OP(C)(=O)N2CCN(c3ccc([N+](=O)[O-])cc3)CC2)cc1 (stereo not drawn)	inactive: 1.6%
CP(=O)(NC(=O)Nc1ccccc1)Oc1ccccc1 (stereo not drawn)	inactive: -0.6%
Cc1cc(C)cc(OP(C)(=O)Nc2ccc(SC(F)(F)F)cc2)c1 (stereo not drawn)	inactive: -0.4%
CCOP(C)(=S)SCC(=O)NC(C)C(=O)O (stereo not drawn)	inactive: 0.2%
CCOC(=O)c1ccc(NP(C)(=O)Oc2ccc(OC)cc2)cc1 (stereo not drawn)	inactive: -0.7%
CP(=O)(Nc1ccccn1)Oc1ccc(Cl)cc1 (stereo not drawn)	inactive: -0.2%
CP(=S)(Nn1cnnc1)Oc1ccccc1 (stereo not drawn)	inactive: -0.4%
COc1ccccc1OP(C)(=O)Nc1ccccc1 (stereo not drawn)	inactive: 1.1%
CP(=O)(Nc1ccccc1Br)Oc1ccccc1 (stereo not drawn)	inactive: -0.2%
O=[N+]([O-])c1cc([N+](=O)[O-])c(Nc2cccnc2)c([N+](=O)[O-])c1	inactive: -1%
CC(C)(C)c1ccc(OP(C)(=O)Nc2ccc(SC(F)(F)F)cc2)cc1 (stereo not drawn)	inactive: -0.5%
Cc1cccc(C)c1OP(C)(N)=O (stereo not drawn)	inactive: -0.4%
O=[N+]([O-])c1ccc2c(c1)C=Nc1ccccc1O2	inactive: 0.2%
CCOC(=O)c1ccc(NP(C)(=O)Oc2ccccc2)cc1 (stereo not drawn)	inactive: -0.1%
COc1ccccc1OP(C)(=O)Nc1ccc(C)cc1 (stereo not drawn)	inactive: 0.2%
Cc1ccc(NP(C)(=O)Oc2ccccc2)c(C)c1 (stereo not drawn)	inactive: -0.6%
COc1ccccc1OP(C)(=O)Nc1cc(Cl)ccc1C (stereo not drawn)	inactive: -1.9%
COc1ccc(OP(C)(=O)Nc2cccc(F)c2)cc1 (stereo not drawn)	inactive: -0.6%

Structure (SMILES)	inhibition
Cc1cc(C)cc(OP(C)(N)=O)c1 (stereo not drawn)	inactive: 1.5%
CCN(CC)CCCOC(=O)C(O)(c1ccccc1)c1ccccc1	inactive: -0.6%
COc1ccccc1-c1ccccn1.O=[N+]([O-])c1cc([N+](=O)[O-])c(O)c([N+](=O)[O-])c1	inactive: 0%
COc1ccccc1OP(C)(=O)Nc1cccc(Br)c1 (stereo not drawn)	inactive: -1.3%
Cc1cc(C)cc(OP(C)(=O)Nc2ccc(C)cc2C)c1 (stereo not drawn)	inactive: 0%
CCOC(=O)c1ccc(NP(C)(=O)Oc2cc(C)cc(C)c2)cc1 (stereo not drawn)	inactive: 0.2%
CP(=O)(Nc1cccc(Br)c1)Oc1ccccc1 (stereo not drawn)	inactive: -1.1%
Cc1cc(C)cc(OP(C)(=O)Nc2ccccn2)c1 (stereo not drawn)	inactive: -0.3%
Cc1ccc(C)c(NP(C)(=O)Oc2ccccc2)c1 (stereo not drawn)	inactive: -2%
O=C(O)c1cccc(Nc2c([N+](=O)[O-])cc([N+](=O)[O-])cc2[N+](=O)[O-])c1	inactive: 0.7%
CC1=NCCc2c1[nH]c1ccccc21.O=[N+]([O-])c1cc([N+](=O)[O-])c(O)c([N+](=O)[O-])c1	inactive: 4.6%
O=[N+]([O-])c1cc([N+](=O)[O-])c(Nc2nnnn2CCO)c([N+](=O)[O-])c1	inactive: 3%
CC1=C2N=C(C=C3N=C(C(C)=C4[N-][C@@](C)([C@@H]5N=C1[C@](C)(CCC(=O)NC[C@@H](C)OP(=O)([O-])O[C@H]1[C@@H](O)[C@@H](n6cnc7cc(C)c(C)cc76)O[C@@H]1CO)[C@H]5CC(N)=O)[C@@](C)(CC(N)=O)[C@@H]4CCC(N)=O)[C@@](C)(CC(N)=O)[C@@H]3CCC(N)=O)C(C)(C)[C@@H]2CCC(N)=O.[C-]#N.[Co+3]	inactive: -0.6%
CCOC(=O)C(CC)C1=NC(C)(C)Cc2ccccc21.O=[N+]([O-])c1cc([N+](=O)[O-])c(O)c([N+](=O)[O-])c1 (stereo not drawn)	inactive: -0.7%
COc1ccccc1OP(C)(=O)Nc1c(C)cccc1C (stereo not drawn)	inactive: -1%
CN1CCCCC1COC(=O)C1(O)c2ccccc2CCc2ccccc21 (stereo not drawn)	inactive: -0.8%
CP(=O)(Nc1ccc(SC(F)(F)F)cc1)Oc1ccccc1 (stereo not drawn)	inactive: 0.2%
CCCOc1ccc(NP(C)(=O)Oc2ccc(Cl)cc2)cc1 (stereo not drawn)	inactive: -2.1%
COc1ccc(-c2ccccn2)cc1.O=[N+]([O-])c1cc([N+](=O)[O-])c(O)c([N+](=O)[O-])c1	inactive: -1.3%
O=[N+]([O-])c1cc([N+](=O)[O-])c(-n2nnc3ccccc32)c([N+](=O)[O-])c1	inactive: 1.2%
CN(Cc1cccnc1)C(=O)COc1ccc(Cl)c(Cl)c1.O=[N+]([O-])c1cc([N+](=O)[O-])c(O)c([N+](=O)[O-])c1	inactive: 0.1%
O=[N+]([O-])c1cc([N+](=O)[O-])c(-c2cnn(-c3ccccc3)c2)c([N+](=O)[O-])c1	inactive: 0.1%
Cc1nc2ccc3ccccc3c2s1.O=[N+]([O-])c1cc([N+](=O)[O-])c(O)c([N+](=O)[O-])c1	inactive: -0.2%

Reference: PubChem BioAssay AID588499 (NMMLSC, 2011)
